Assay results reported in article PMC6514670, “Field-Based Affinity Optimization of a Novel Azabicyclohexane Scaffold HIV-1 Entry Inhibitor” (Molecules, 2019).

These compounds were tested against B41 SOSIP.664 gp140 trimer (Human immunodeficiency virus type 1, UniProt B3UES2, A505C/E513R/I563P/INS515RR/K514R/T609C) (assay: SPR direct interaction analysis with immobilized B41 SOSIP.664 gp140 trimer). Conditions: Table 1, 25 °C.
Assay type: binding, HIV-1
`COc1cnc(-n2cnc(C)n2)c2[nH]cc(C(=O)C(=O)N3CC4CN(C(=O)c5ccccc5)CC4C3)c12` (centres unmarked) [SC11] gave a Kd of 131 nM.
With `COc1cnc(-n2cnc(C)n2)c2[nH]cc(C(=O)C(=O)N3CC=C(CNC(=O)c4ccccc4)CC3)c12` [SC45] the Kd was 1100 nM.
Compound `COc1cnc(-n2cnc(C)n2)c2[nH]cc(C(=O)C(=O)N3CC(CCC(=O)c4ccccc4)C3)c12` [SC15] has a Kd of 18.1 nM.

Same assay, conditions: Table 3, 25 °C
Compound `CNC(=O)c1ncc(OC)c2c(C(=O)C(=O)NC3C4CN(C(=O)c5ccccc5)CC43)c[nH]c12` (centres unmarked) [SC49] has a Kd of 36100 nM.
`C=C(C(=O)NC1C2CN(C(=O)c3ccccc3)CC21)n1ccc2c(-n3cnc(C)n3)nc3ccnn3c21` (centres unmarked) [SC52, N-(3-benzoyl-3-azabicyclo[3.1.0]hexan-6-yl)-2-(5-(3-methyl-1H-1,2,4-triazol-1-yl)-8H-pyrazolo[1,5-a]pyrrolo[3,2-e]pyrimidin-8-yl)acrylamide] gave a Kd of 23700 nM.
Work on `O=C(NC1C2CN(C(=O)c3ccccc3)CC21)C(=O)c1c[nH]c2c(-c3cccnc3)ncc(F)c12` (centres unmarked) [SC50] yielded a Kd of 114000 nM.
`Nc1nc(-c2ccc(F)c3c(C(=O)C(=O)NC4C5CN(C(=O)c6ccccc6)CC54)c[nH]c23)no1` (centres unmarked) [SC55, 2-(7-(5-amino-1,2,4-oxadiazol-3-yl)-4-fluoro-1H-indol-3-yl)-N-(3-benzoyl-3-azabicyclo[3.1.0]hexan-6-yl)-2-oxoacetamide] was tested, and the Kd was 11400 nM.
In the case of `COc1cnc(-n2cnc(C)n2)c2[nH]cc(C(=O)C(=O)NC3C4CN(C(=O)c5ccccc5)CC43)c12` (centres unmarked) [SC28], the Kd is reported as 500 nM and 504 nM.

Where “and” joins values, the source holds several entries; their conditions need not be identical. Equal entries are not always repeated.
